# Only a part is listed here, and it is no random draw. The source made the active and inactive calls.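 The calls were made as follows: active = inhibition above the mean of all tested compounds plus 3 SD, cutoff set per screening run (cut at about 7.5% in these data); inactive = the rest.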
# Tested on: VIM-2 metallo-beta-lactamase (Pseudomonas aeruginosa)
# Assay: inhibition of VIM-2 nitrocefin hydrolysis – biochemical, epi-absorbance readout, Pseudomonas aeruginosa enzyme, primary screen (AID 1527);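 also: red hydrolysis product quenches plate fluorescence so inhibitors raise well fluorescence; 0% = enzyme with DMSO and 100% = DMSO without enzyme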
# Settings: purified VIM-2, nitrocefin hydrolysis, epi-absorbance fluorescence; at 5.6 µM; active compounds read high
row,SMILES,inhibition
1,CCOC(=O)N1CCC(Nc2ccc(C)cc2)CC1,inactive: -2.28%
2,N/C(=N\O)c1c(N)no[n+]1[O-],inactive: -4.15%
3,O=C(OC1CN2CCC1CC2)C1c2ccccc2C=Cc2ccccc21 (centres undefined),inactive: -2.12%
4,COc1ccc(C(=O)NCC2(N3CCOCC3)CCCCC2)cc1OC,inactive: -0.7%
5,CN(C)C1(CNC(=O)c2cccc(C#N)c2)CCCCC1,inactive: 0.33%
6,c1ccc(CN2CCC(Nc3ccccc3)CC2)cc1,inactive: -0.53%
7,CCCN1CCC(Nc2cc(OC)cc(OC)c2)CC1,inactive: 0.16%
8,N#Cc1ccc(C(=O)NCC2(N3CCCCC3)CCCCC2)cc1,inactive: -1.52%
9,CC(C)(C)OC(=O)N1CCC(N(C(=O)c2ccccc2)c2ccc(Cl)cc2)CC1,inactive: -4.6%
10,CCN1CCC(Nc2cccc(F)c2)CC1,inactive: -2.03%
11,CN(C)c1ccc(C(=O)NCC2(N3CCCCC3)CCCCC2)cc1,inactive: -1.14%
12,COc1cc(OC)cc(C(=O)NCC2(N3CCCCC3)CCCCC2)c1,inactive: -3.25%
13,COc1cccc(C(=O)N(c2cc(C)cc(C)c2)C2CCN(C(=O)OC(C)(C)C)CC2)c1,inactive: 0.44%
14,COc1cc(OC)cc(C(=O)NCC2(N3CCOCC3)CCCCC2)c1,inactive: 0.91%
15,CCC(CO)(C(=O)OC1CN2CCC1CC2)c1ccccc1 (centres undefined),inactive: 0.03%
16,CN1CCC(Nc2ccc(Cl)cc2)CC1,inactive: -1.91%
17,CCCOc1ccc(C)cc1CN(CCCl)CCCl,inactive: -2.3%
18,CCOc1ncccc1C(=O)NCC1(N2CCOCC2)CCCCC1,inactive: -1.37%
19,CN1CCC(Nc2ccc(F)c(Cl)c2)CC1,inactive: -0.99%
20,CC(C)(C)OC(=O)N1CCC(Nc2ccccc2)CC1,inactive: -2.15%
21,O=C(O)C1(Nc2ccccc2)CCN(Cc2ccccc2)CC1,inactive: -0.21%
22,CCCOc1ccc(C(=O)NCC2(N(C)C)CCCCC2)cc1,inactive: -1.85%
23,Cc1cc(C)cc(N(C(=O)c2ccccc2)C2CCN(C(=O)OC(C)(C)C)CC2)c1,inactive: -5.15%
24,O=C(NCC1(N2CCOCC2)CCCCC1)c1cc2ccccc2o1,inactive: -5.51%
25,O=C(OC1CN2CCC1CC2)C1c2ccccc2Oc2ccccc21 (centres undefined),inactive: -0.49%
26,N#CC1(Nc2ccccc2)CCN(Cc2ccccc2)CC1,inactive: -2.69%
27,CCOC(=O)N1CCC(Nc2ccc(OC)cc2)CC1,inactive: -0.82%
28,COc1ccc(C(=O)NCC2(N3CCCCC3)CCCCC2)cc1,inactive: -2.27%
29,CC(C)(C)OC(=O)N1CCC(N(C(=O)c2ccccc2)c2ccc(F)cc2)CC1,inactive: 0.91%

# — PubChem BioAssay AID1527 (The Scripps Research Institute Molecular Screening Center, 2009)
